# PSTVd loop 6 mutant pool in Nicotiana benthamiana

Data from the supplement of Wu et al. 2024, doi:10.1371/journal.ppat.1012142.

PSTVd intermediate strain, loop 6: wild type UGACCGCGAG, pool pattern UNNNCGNNNG; upper and lower strand joined, each 5' to 3', the first 5 letters being the upper strand, closing pairs included.

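Three N. benthamiana plants were inoculated with the whole mutant pool. Samples came from the inoculated region at 5 days, the leaf margin at 10 and upper systemic leaves at 12.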

Values are reads per thousand in the sample; higher means more abundant, 0 means not found. Each site shows the three plants. "Pool" is the share in the plasmid pool used as inoculum, on the same scale. The inoculated region was read from the minus strand, the other sites from the plus strand. Samples held 36,220 to 57,551 reads, so the smallest values rest on one or two reads. The authors trace changes outside the varied positions to PCR and sequencing errors or to mutation in the plant; presence does not show that a variant is infectious alone. Wild type was 20.7 per thousand in the pool and the most common sequence in every sample (inoculated region 195, 198, 203; leaf margin 629, 591, 734; systemic leaves 942, 870, 868).

| # | sequence | pool | inoculated region | leaf margin | systemic leaves |
|---|---|---|---|---|---|
| 1 | UAGGCGCCGG | 0.183 | 0.122 / 0.0539 / 0.0922 | 0 / 0 / 0 | 0 / 0 / 0 |
| 2 | UGCCCGCCUG | 0.353 | 0.139 / 0.0359 / 0.129 | 0 / 0 / 0 | 0 / 0 / 0 |
| 3 | UGUACGUUAG | 0.588 | 0.139 / 0.180 / 0.129 | 0.0276 / 0 / 0.0232 | 0 / 0 / 0 |
| 4 | UACUCGUUUU | 0.0131 | 0 / 0 / 0 | 0 / 0 / 0 | 0 / 0 / 0 |
| 5 | UCACCGGAUG | 0.196 | 0.139 / 0.0719 / 0.0738 | 0.0552 / 0 / 0.0928 | 0 / 0 / 0 |
| 6 | UAGUCGAGGG | 0.105 | 0.0869 / 0.0539 / 0.0553 | 0 / 0 / 0 | 0 / 0 / 0 |
| 7 | UGAUCGUAUG | 0.392 | 0.0695 / 0.108 / 0.0553 | 0.248 / 0 / 0 | 0 / 0 / 0 |
| 8 | UAGGCGUGCG | 0.183 | 0.0695 / 0.0719 / 0.0553 | 0 / 0 / 0 | 0 / 0 / 0 |
| 9 | UGAUCGCGCU | 0.0131 | 0 / 0 / 0 | 0 / 0 / 0 | 0 / 0 / 0 |
| 10 | UACGCGCGAG | 0.144 | 0.122 / 0.0898 / 0.0922 | 0.0828 / 0 / 0 | 0 / 0 / 0 |
| 11 | UGGGCGGAGG | 0.183 | 0.0521 / 0.0359 / 0 | 0 / 0 / 0 | 0 / 0 / 0 |
| 12 | UCUACGCCAG | 0.144 | 0.104 / 0.0719 / 0.0922 | 0.0276 / 0 / 0 | 0 / 0 / 0 |
| 13 | UGCACGUAUG | 0.261 | 0.174 / 0.0719 / 0.0922 | 0.248 / 0 / 0 | 0 / 0 / 0 |
| 14 | UGGCCGAAAG | 0.261 | 0.0348 / 0.162 / 0.258 | 0.0552 / 0 / 0.0464 | 0 / 0 / 0 |
| 15 | UCACCGUGUG | 0.301 | 0.104 / 0.126 / 0.184 | 0 / 0 / 0.0464 | 0 / 0 / 0 |
| 16 | UCAGCGCAUG | 0.0784 | 0.156 / 0.0359 / 0.148 | 0 / 0 / 0 | 0 / 0 / 0 |
| 17 | UCCCCGACCG | 0.222 | 0.104 / 0.0719 / 0.111 | 0 / 0 / 0.0464 | 0 / 0 / 0 |
| 18 | UGCUCGUAAG | 0.131 | 0.139 / 0.0898 / 0.0184 | 0.0276 / 0 / 0 | 0 / 0 / 0 |
| 19 | UACCCGUCCG | 0.209 | 0.0869 / 0.0898 / 0.0184 | 0 / 0 / 0 | 0 / 0 / 0 |
| 20 | UCUACGGAGG | 0.196 | 0.0521 / 0.144 / 0.111 | 0.0828 / 0 / 0.0232 | 0 / 0 / 0 |
| 21 | UCCUCGGUGG | 0.157 | 0.174 / 0.0898 / 0.0553 | 0.0276 / 0 / 0 | 0 / 0 / 0 |
| 22 | UUGGCGAGCG | 0.431 | 0.122 / 0.144 / 0.0922 | 0.0276 / 0 / 0 | 0 / 0 / 0 |
| 23 | UUAGCGGUUG | 0.248 | 0.0869 / 0.108 / 0.0369 | 0 / 0 / 0 | 0 / 0 / 0 |
| 24 | UUAACGUAAG | 0.131 | 0.747 / 0.683 / 0.443 | 0.110 / 0.0757 / 0.116 | 0 / 0 / 0 |
| 25 | UGCACGACCG | 0.196 | 0.104 / 0.0359 / 0.0922 | 0 / 0 / 0.0232 | 0 / 0 / 0 |
| 26 | UCAGCGCUCG | 0.222 | 0.156 / 0.0719 / 0.0553 | 0 / 0 / 0.0464 | 0 / 0 / 0 |
| 27 | UCUGCGUAGG | 0.471 | 0.0869 / 0.108 / 0.0369 | 0 / 0 / 0.0232 | 0 / 0 / 0 |
| 28 | UUAACGGCCG | 0.144 | 0.886 / 0.647 / 0.645 | 0.0552 / 0.101 / 0.139 | 0 / 0.0404 / 0.0410 |
| 29 | UCGGCGUAAG | 0.222 | 0.139 / 0.126 / 0.0553 | 0 / 0 / 0 | 0 / 0 / 0 |
| 30 | UAUACGAACG | 0.340 | 0.104 / 0.126 / 0.111 | 0.0276 / 0 / 0 | 0 / 0 / 0.0205 |
| 31 | UAUCCGGAGG | 0.196 | 0.139 / 0.144 / 0.184 | 0 / 0 / 0 | 0 / 0 / 0 |
| 32 | UACUCGUGUG | 0.248 | 0.0695 / 0.0898 / 0.0922 | 0 / 0 / 0 | 0 / 0 / 0 |
| 33 | UAGGCGCCAG | 0.275 | 0.139 / 0.162 / 0.129 | 0 / 0 / 0.0232 | 0 / 0 / 0 |
| 34 | UCGACGAUAG | 0.288 | 0.174 / 0.216 / 0.111 | 0.0276 / 0 / 0.209 | 0 / 0 / 0 |
| 35 | UCGUCGCGCG | 0.157 | 0.122 / 0 / 0.0184 | 0 / 0 / 0 | 0 / 0 / 0 |
| 36 | UAACCGAUUG | 0.235 | 0.104 / 0.0539 / 0.166 | 0.0276 / 0 / 0.0232 | 0 / 0 / 0 |
| 37 | UUUUCGCUGG | 0.0784 | 0.104 / 0.0898 / 0.0738 | 0 / 0 / 0.0232 | 0 / 0 / 0 |
| 38 | UCCUCGGAGG | 0.144 | 0.104 / 0.108 / 0.0738 | 0 / 0 / 0 | 0 / 0 / 0 |
| 39 | UCGGCGCGGG | 0.327 | 0.156 / 0.0539 / 0.184 | 0 / 0.0757 / 0 | 0 / 0 / 0 |
| 40 | UUCGCGAACG | 0.144 | 0.0869 / 0.0719 / 0.111 | 0 / 0 / 0.0464 | 0 / 0 / 0 |